Reference: ChEMBL document CHEMBL1153435, “Harnessing nature's insight: design of aspartyl protease inhibitors from treatment of drug-resistant HIV to Alzheimer's disease” (J Med Chem, 2009)

Target: Protease (Human immunodeficiency virus 1, UniProt Q9YQ12)
Assay: Inhibition of HIV1 protease

Which Ki does the source give for `CC(C)(C)NC(=O)[C@@H]1C[C@@H]2CCCC[C@@H]2CN1C[C@@H](O)[C@H](Cc1ccccc1)NC(=O)[C@H](CC(N)=O)NC(=O)c1ccc2ccccc2n1` here?
Its Ki is 1.4 nM.
